## Percent effect of library compounds

Source: ChEMBL document CHEMBL3988442, “University of Dundee, Small-Polar-MMV Screening Library” (2021).

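Whole-cell growth test on Mycobacterium tuberculosis, read after 4 days in a medium based on cholesterol and the lipid DPPC; the read-out is not stated. Tested at 500 µM. Direction is inferred from retests: higher values go with more growth inhibition. Of about 18,000 compounds tested this way, about 900 (5%) reached 50% or more in at least one test.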

Results are given as percent effect. How 0% and 100% were set is not recorded. Most values in the screen are low, and negative values occur. Many other results are left out here, so strong results are more common than in the screen.

CCN1CCN(S(=O)(=O)c2cc(C)ccc2OC)CC1 gave 16.47%.
N#Cc1cccc(OCCSc2nnc[nH]2)c1 gave 41.74%.
COCCCNC(=O)c1coc(Br)c1 gave 54.82%.
COc1ccc(O)c(C(=O)NC(C)c2n[nH]c(C)n2)c1 (stereo unspecified) gave 12.41%.
CC(C)CC(CN)CO (stereo unspecified) gave -6.246%.
CNCc1cc(C#N)ccc1F gave 24.94%.
Cc1ccccc1NC(=O)Cn1cccn1 gave -8.79%.
COCc1noc(CN2CC[C@](C)(O)C(C)(C)C2)n1 gave -71.71%.
CCC(CO)N1CCN(c2nccnc2C#N)CC1 (stereo unspecified) gave 0.3442%.
COC(=O)C(NC(=O)c1ccoc1)c1ccccc1 (stereo unspecified) gave 4.621%.
NCCC1C(=O)Nc2ccccc21 (stereo unspecified) gave 14.08%.
Cc1ccnc(NC(C)c2ccc(S(N)(=O)=O)cc2)c1 (stereo unspecified) gave 8.925%.
NC1CCN(c2ncccc2Cl)C1 (stereo unspecified) gave 77.63%.
Nc1nc(N2CCCNC(=O)C2)cc([C@H]2C[C@@H](O)C2)n1 gave 10.71%.
CN(CCN)C(C1CC1)C1CC1 gave 3.86%.
CC(N)c1noc(-c2ccc(Cl)cc2)n1 (stereo unspecified) gave 60.38%.
Fc1ccc2nc(N3CCCNCC3)oc2c1F gave 68.98%.
Cc1occc1C(=O)N1CCCC(CNS(C)(=O)=O)C1 (stereo unspecified) gave -1.977%.
CC(=O)NCCNCc1ccc(C#N)cc1 gave -6.498%.
N#Cc1cccnc1N[C@@H]1CCOC[C@H]1OCC1CC1 gave -3.846%.
CC(C)Cn1ccnc1CNc1ncccc1F gave 55.12%.
NCc1cc(Oc2ccc(F)c(F)c2)ccn1 gave -5.996%.
NCc1cnn(-c2ccc(Br)cc2)c1 gave 55.45%.
COc1ccc(C)cc1[C@@H](C)N gave -5.836%.
CN(CCNC(=O)c1cc[nH]n1)Cc1ccccc1 gave 14.01%.
NCCc1ccc(Cl)s1 gave 27.22%.
CCNC1=NN=C(c2ccc(OC)c(F)c2)CS1 gave 84.32%.
OC1(c2nc(-c3cnccn3)no2)CCCCC1 gave -9.104%.
CNC(=O)CN(C)C(=O)Cc1c[nH]c2ccccc12 gave -1.836%.
CCC(N)C(=O)N1CCN(c2ccc(F)cc2Cl)CC1 (stereo unspecified) gave 57.35%.
Cc1cnn(CCNCc2ccc3c(c2)OCCO3)c1 gave 77.27%.
CCn1cc(Br)c(=O)c(NC(=O)CC(F)(F)F)c1 gave 1.564%.
COc1cccc(C(N)c2cccnc2)c1 (stereo unspecified) gave 8.738%.
CCOC(=O)CNC(=O)NC(C)c1ccccn1 (stereo unspecified) gave 9.503%.

The last 2 entries again:

SMILES,Percent Effect
COc1cccc(C(N)c2cccnc2)c1 (stereo unspecified),8.738%
CCOC(=O)CNC(=O)NC(C)c1ccccn1 (stereo unspecified),9.503%